This test deals with S. mutans. As to the kind of experiment: Effect on planktonic growth (growth curve, UV-Vis absorption). Format: cell-based, Streptococcus mutans. Particulars: products of ceric salt hydrolysis.

This is a selection: effects in other tests are not listed, and their absence says nothing.

Regarding ammonium nitrate, the “activity in limiting planktonic growth” value is “not active”.

Source of the values: patent publication US10835556B2, “Hydrolyzed tetravalent metal salts and methods of biofilm inhibition” (THE BOARD OF TRUSTEES OF THE UNIVERSITY OF ILLINOIS, priority 2018, dated 2020).
